Compound potency records, mixed from different reports. Data source: NIAID ChemDB in PubChem.

Common to all: enzyme or target tests; species: HIV-1; protein: Reverse transcriptase; measure: IC50

Two numbers with a dash give a range or band.

smiles	strain or isolate	mutations	method	value
COc1nnc2c3ccccc3c(N3CCc4ccc(N)cc4C3)nn12	98US_MSC5016	-	RT activity / fluorescence	5.05 µM
CC(Sc1nnc(Br)n1-c1ccc(C2CC2)c2ccccc12)C(=O)Nc1ccc(S(N)(=O)=O)cc1Cl	-	RT-Y188L	nucleotide incorporation / radiometric	>0.1 µM
Oc1ccc2c(c1)CN(c1nn3c(C4CC4)nnc3c3ccccc13)CC2	98US_MSC5016	-	RT activity / fluorescence	0.57 µM
CC(C)(C)c1cc(Cl)c(-n2nnnc2SCC(=O)Nc2ccc(-c3ccc(CC(=O)O)cc3)cc2Cl)c(Cl)c1	WT	-	PicoGreen / fluorescence	<1 µM
CCN1c2ncc(CCOc3ccc(C(=O)O)c4c3CCN(S(C)(=O)=O)C4)cc2C(=O)N(C)c2cccnc21	-	RT-K103N Y181C	nucleotide incorporation / radiometric	<0.1 µM
CC(C)(C)c1ccc(-n2nnnc2SCC(=O)Nc2ccc(C#CC3CC3)cc2Cl)c(Cl)c1	WT	-	PicoGreen / fluorescence	<1 µM
CCN1c2ncc(CCOc3ccc(-c4ccc(C(=O)O)s4)cc3C)cc2C(=O)N(C)c2cccnc21	IIIB	-	nucleotide incorporation / radiometric	<0.05 µM
NS(=O)(=O)c1ccc(NC(=O)CSc2nnc(Br)n2-c2ccc(C3CCC3)c3ccccc23)c(Cl)c1	-	-	nucleotide incorporation / radiometric	<0.05 µM
CC(C)(O)C#Cc1ccc(NC(=O)CSc2nnnn2-c2ccc(C(C)(C)C)cc2Cl)c(Cl)c1	WT	-	PicoGreen / fluorescence	<1 µM
Cc1ccc2ccccc2c1-n1c(Br)nnc1SC(C)C(=O)Nc1ccc(S(N)(=O)=O)cc1Cl	-	RT-Y181C	nucleotide incorporation / radiometric	0.05–0.1 µM
O=C(CSc1nnc(Br)n1-c1ccc(C2CC2)c2ccccc12)Nc1ccc(C(=O)O)cc1Cl	-	-	nucleotide incorporation / radiometric	<0.05 µM
CCc1ccc(-n2c(Br)nnc2SCC(=O)Nc2ccc(C(=O)N3CCC(O)CC3)cc2Cl)c2ccccc12	-	RT-Y181C	nucleotide incorporation / radiometric	<0.05 µM
CCN1c2ncc(CCOc3ccc(C(=O)O)c4ccccc34)cc2C(=O)N(C)c2ccc(C)nc21	-	RT-K103N Y181C	nucleotide incorporation / radiometric	0.1–1 µM
CS(=O)(=O)NC(=O)c1ccc(NC(=O)CSc2nnnn2-c2ccc(C3CC3)cc2Cl)c(Cl)c1	-	RT-K103 Y181C	PicoGreen / fluorescence	<1 µM
CCN1c2ncc(CCOc3ccc(-c4ccc(CC(=O)O)cc4[N+](=O)[O-])cc3C)cc2C(=O)N(C)c2cccnc21	IIIB	-	nucleotide incorporation / radiometric	<0.05 µM
CCNC(=O)c1ccc(NC(=O)CSc2nnnn2-c2ccc(C)cc2Cl)c(Cl)c1	-	RT-K103 Y181C	PicoGreen / fluorescence	<1 µM
CCc1ccc(-n2c(Br)nnc2SCC(=O)Nc2ccc(C(=O)O)cc2Br)c2ccccc12	-	RT-Y188L	nucleotide incorporation / radiometric	0.05–0.1 µM
CCC(C#Cc1ccc(NC(=O)CSc2nnnn2-c2ccc(C3CC3)cc2Cl)c(Cl)c1)(CC)NC(=O)OC(C)(C)C	-	RT-K103 Y181C	PicoGreen / fluorescence	<1 µM
Cc1cc(S(N)(=O)=O)ccc1NC(=O)CSc1nnc(Br)n1-c1ccc(C)c2c1CCCC2	-	RT-Y181C	nucleotide incorporation / radiometric	<0.05 µM
CCN1c2ncc(CCc3cccc(N)c3)cc2C(=O)N(C)c2ccc(Cl)nc21	WT	-	nucleotide incorporation / radiometric	<1 µM
CCN1c2ncc(CCOc3ccc(/C=C(\C)C(=O)O)c4ccccc34)cc2C(=O)N(C)c2ccc(F)nc21	-	RT-V106A	nucleotide incorporation / radiometric	>1 µM
CCc1ccc(-n2c(Br)nnc2SCC(=O)Nc2ccc(C(=O)NCCOC)cc2Cl)c2ccccc12	-	RT-Y181C	nucleotide incorporation / radiometric	<0.05 µM
CN(C)S(=O)(=O)NC(=O)C(C)(C)C#Cc1ccc(NC(=O)CSc2nnnn2-c2ccc(C3CC3)cc2Cl)c(Cl)c1	-	RT-K103 Y181C	PicoGreen / fluorescence	<1 µM
COc1ccc2c(C)ccc(-n3c(Br)nnc3SCC(=O)Nc3ccc(C(=O)O)cc3Cl)c2c1	-	-	nucleotide incorporation / radiometric	<0.05 µM
CC(C)(C#Cc1ccc(NC(=O)CSc2nnnn2-c2ccc(C(C)(C)C)cc2Cl)c(Cl)c1)OCC(=O)NNC(N)=O	WT	-	PicoGreen / fluorescence	<1 µM
Cc1ccc(-n2c(SCC(=O)Nc3ccc(S(=O)(=O)NCCN4CCOCC4)cc3Cl)nnc2C(F)F)c2c1CCCC2	-	-	nucleotide incorporation / radiometric	<0.05 µM
CCN1c2ncc(CCOc3ccc(C(=O)NCC(CC)(CC)C(=O)O)cc3C)cc2C(=O)N(C)c2cccnc21	IIIB	RT-K103N Y181C	nucleotide incorporation / radiometric	<0.05 µM
Cc1cc(C2CC2)c2ccccc2c1-n1c(Br)nnc1SCC(=O)Nc1ccc(C(=O)O)cc1Cl	-	-	nucleotide incorporation / radiometric	<0.05 µM
CCN1c2ncc(CC(O)c3ccncc3)cc2C(=O)N(C)c2ccc(F)nc21	WT	-	nucleotide incorporation / radiometric	<1 µM
NS(=O)(=O)c1ccc(NC(=O)CSc2nnc(C(F)F)n2-c2ccc(C3CCCC3)c3ccccc23)c(Cl)c1	-	RT-Y181C	nucleotide incorporation / radiometric	<0.05 µM
CC(C)(C#Cc1ccc(NC(=O)CSc2nnnn2-c2cc(Cl)ccc2Cl)c(Cl)c1)NC(=O)CN1CCNCC1	-	RT-K103 Y181C	PicoGreen / fluorescence	<1 µM
COC(=O)[C@@H](NC(=O)c1ccc(NC(=O)CSc2nnc(Br)n2-c2ccc(C3CC3)c3ccccc23)c(Cl)c1)C(C)C	-	-	nucleotide incorporation / radiometric	<0.05 µM
CCN1c2ncc(CCOc3ccc(C(=O)O)c4c3CCCC4)cc2C(=O)N(C)c2ccc(F)nc21	-	RT-V106A	nucleotide incorporation / radiometric	>1 µM
O=C(CSc1nnc(Br)n1-c1ccc(C2CC2)cc1Cl)Nc1ccc(C(=O)O)cc1Cl	-	-	nucleotide incorporation / radiometric	<0.05 µM
Nc1cc2c(c(N3CCOCC3)c1)CCN(c1nn3c(C4CC4)nnc3c3ccccc13)C2	KER2008	-	RT activity / fluorescence	14.2 µM
CC(C)(C)c1ccc(-n2nnnc2SCC(=O)Nc2ccc(OCC(=O)Nc3ccc(CC(=O)O)cc3)cc2Cl)c(Cl)c1	WT	-	PicoGreen / fluorescence	<1 µM
NS(=O)(=O)c1ccc(NC(=O)CSc2nnc(C(F)F)n2-c2ccc3c4c(cccc24)CC3)c(Cl)c1	-	RT-Y181C	nucleotide incorporation / radiometric	<0.05 µM
Cc1ccc(-n2nncc2SCC(=O)Nc2ccc(-c3ccc(CC(=O)O)cc3)cc2Cl)c(Cl)c1	-	RT-K103 Y181C	PicoGreen / fluorescence	<1 µM
COc1ccc2c(c1)CCN(c1nn3c(C4CC4)nnc3c3ccccc13)C2	IIIB	-	RT activity / fluorescence	1.07 µM
Cc1ccc(-n2c(SCC(=O)Nc3ccc(S(=O)(=O)NC(C(=O)O)C(C)C)cc3Cl)nnc2C(F)F)c2c1CCCC2	-	RT-Y181C	nucleotide incorporation / radiometric	>0.1 µM
CC[C@H](C)[C@H](NC(=O)c1ccc(NC(=O)CSc2nnc(Br)n2-c2ccc(C3CC3)c3ccccc23)c(Cl)c1)C(=O)O	-	RT-Y188L	nucleotide incorporation / radiometric	0.05–0.1 µM
CNS(=O)(=O)c1ccc(NC(=O)CSc2nnc(C(F)F)n2-c2ccc(C)c3c2CCCC3)c(Cl)c1	-	-	nucleotide incorporation / radiometric	<0.05 µM
CCc1ccc(-n2c(SCC(=O)Nc3ccc(C(=O)O)cc3C)nnc2C(F)F)c2ccccc12	-	RT-Y181C	nucleotide incorporation / radiometric	>0.1 µM
CCc1cc(CCc2nc3ccccc3o2)c(=O)[nH]c1C	-	RT-Y181W	nucleotide incorporation	0.6552 µM
CCN1c2ncc(CCOc3ccc(-c4ccc(CC(=O)O)cc4)cc3)cc2C(=O)N(C)c2cccnc21	IIIB	-	nucleotide incorporation / radiometric	<0.05 µM
Cc1cc(S(=O)(=O)O)ccc1NC(=O)CSc1nnc(C(F)F)n1-c1ccc(C)c2c1CCCC2	-	RT-Y188L	nucleotide incorporation / radiometric	>0.1 µM
CCN1c2ncc(CCOc3cccc4c3ccc[n+]4[O-])cc2C(=O)N(C)c2ccc(Cl)nc21	-	RT-K103N L100I	nucleotide incorporation / radiometric	0.044 µM
CC(C)(C#Cc1ccc(NC(=O)CSc2nnnn2-c2ccc(C(C)(C)C)cc2Cl)c(Cl)c1)OCC(=O)Nc1ccncc1	WT	-	PicoGreen / fluorescence	<1 µM
CCOC(=O)CN(C)C(=O)c1ccc(NC(=O)CSc2nnc(Br)n2-c2ccc(C3CC3)c3ccccc23)c(Cl)c1	-	RT-Y188L	nucleotide incorporation / radiometric	>0.1 µM
CCN1c2nc(Cl)ccc2NC(=O)c2cc(CCc3cccc(NS(C)(=O)=O)c3)cnc21	WT	-	nucleotide incorporation / radiometric	<1 µM
CCc1ccc(-n2c(Br)nnc2SCC(=O)Nc2ccc(C(=O)NCC(=O)OC)cc2Cl)c2ccccc12	-	-	nucleotide incorporation / radiometric	<0.05 µM
Cc1nnc2c3ccccc3c(N3CCc4cccnc4C3)nn12	KER2008	-	RT activity / fluorescence	1.46 µM
CCN1c2ncc(CCc3cccc4[nH]ccc34)cc2C(=O)N(C)c2cccnc21	WT	-	nucleotide incorporation / radiometric	<1 µM
O=C(CSc1nnnn1-c1ccc(C2CC2)cc1Cl)Nc1ccc(-c2ccc(OCCN3CCCCC3)c(Cl)c2)cc1Cl	WT	-	PicoGreen / fluorescence	<1 µM
NS(=O)(=O)c1ccc(NC(=O)CSc2nnc(Br)n2-c2ccc(C3CC3)c3ccccc23)c(Cl)c1	-	RT-Y181C	nucleotide incorporation / radiometric	<0.05 µM
CC(C)(C)c1ccc(-n2nnnc2SCC(=O)Nc2ccc(C(=O)NCCN3CCOCC3)cc2Cl)c(Cl)c1	WT	-	PicoGreen / fluorescence	<1 µM
O=C(CSc1nnc(C(F)F)n1-c1ccc(C2CC2)c2ccccc12)Nc1ccc(C(=O)O)cc1Cl	-	-	nucleotide incorporation / radiometric	<0.05 µM
CC1(C)CN(CCOC(C)(C)C#Cc2ccc(NC(=O)CSc3nnnn3-c3ccc(C4CC4)cc3Cl)c(Cl)c2)C=N1	WT	-	PicoGreen / fluorescence	<1 µM
CC(=O)Nc1ccc2c(c1)CN(c1nn3c(C4CC4)nnc3c3ccccc13)CC2	98US_MSC5016	-	RT activity / fluorescence	0.17 µM
CC(C)(C#Cc1ccc(NC(=O)CSc2nnnn2-c2ccc(C(C)(C)C)cc2Cl)c(Cl)c1)OCC(N)=O	-	RT-K103 Y181C	PicoGreen / fluorescence	<1 µM
O=C(CSc1nnc(Br)n1-c1ccc(C2CC2)cc1Cl)Nc1ccc(C(=O)O)cc1Cl	-	RT-Y188L	nucleotide incorporation / radiometric	>0.1 µM
CCOC(=O)c1ccc(NC(=O)Nc2ccc(NC(=O)CSc3nnnn3-c3ccc(C(C)(C)C)cc3Cl)c(Cl)c2)cc1	-	RT-K103 Y181C	PicoGreen / fluorescence	<1 µM
NS(=O)(=O)c1ccc(NC(=O)CSc2nnc(Br)n2-c2ccc(C3CC3)cc2OC(F)(F)F)c(Cl)c1	-	RT-Y181C	nucleotide incorporation / radiometric	<0.05 µM
CC(C)(C#Cc1ccc(NC(=O)CSc2nnnn2-c2ccc(C3CC3)cc2Cl)c(Cl)c1)C(=O)NS(=O)(=O)C1CC1	WT	-	PicoGreen / fluorescence	<1 µM
CCOC(=O)C(C)NS(=O)(=O)c1ccc(NC(=O)CSc2nnc(C(F)F)n2-c2ccc(C)c3c2CCCC3)c(Cl)c1	-	RT-Y188L	nucleotide incorporation / radiometric	>0.1 µM
CC(C)(C)c1ccc(-n2nnnc2SCC(=O)Nc2ccc(NC(=O)c3cccc(C(=O)O)c3)cc2Cl)c(Cl)c1	-	RT-K103 Y181C	PicoGreen / fluorescence	<1 µM
O=C(O)CCNC(=O)c1ccc(NC(=O)CSc2nnc(Br)n2-c2ccc(C3CC3)c3ccccc23)c(Cl)c1	-	RT-Y181C	nucleotide incorporation / radiometric	<0.05 µM

5 of the rows above, restated:

{"smiles": "CS(=O)(=O)NC(=O)c1ccc(NC(=O)CSc2nnnn2-c2ccc(C3CC3)cc2Cl)c(Cl)c1", "mutations": "RT-K103 Y181C", "method": "PicoGreen / fluorescence", "value": "<1 µM"}
{"smiles": "CCN1c2ncc(CCc3cccc(N)c3)cc2C(=O)N(C)c2ccc(Cl)nc21", "strain or isolate": "WT", "method": "nucleotide incorporation / radiometric", "value": "<1 µM"}
{"smiles": "CC(C)(C#Cc1ccc(NC(=O)CSc2nnnn2-c2ccc(C3CC3)cc2Cl)c(Cl)c1)C(=O)NS(=O)(=O)C1CC1", "strain or isolate": "WT", "method": "PicoGreen / fluorescence", "value": "<1 µM"}
{"smiles": "COC(=O)[C@@H](NC(=O)c1ccc(NC(=O)CSc2nnc(Br)n2-c2ccc(C3CC3)c3ccccc23)c(Cl)c1)C(C)C", "method": "nucleotide incorporation / radiometric", "value": "<0.05 µM"}
{"smiles": "CCc1ccc(-n2c(Br)nnc2SCC(=O)Nc2ccc(C(=O)O)cc2Br)c2ccccc12", "mutations": "RT-Y188L", "method": "nucleotide incorporation / radiometric", "value": "0.05–0.1 µM"}

ICn is the concentration giving n% inhibition. Blank or dashed fields: not listed here. Conditions beyond the fields shown may differ between rows.